Test results taken from ChEMBL document CHEMBL1144867, “Antiviral amphipathic oligo- and polyribonucleotides: analogue development and biological studies” (J Med Chem, 2003).

Tests used:
CCRF-CEM = test: Inhibitory activity against HIV in CEM-SS cells.
[1] = target: Human immunodeficiency virus type 1 reverse transcriptase (Human immunodeficiency virus 1, UniProt Q72547)

| Structure (SMILES) | EC50 (CCRF-CEM) [nM] | IC50 [1] [nM] |
| --- | --- | --- |
| C=CCn1cnc2c(ncn2[C@@H]2O[C@H](COC)[C@@H](OP(C)(=O)O)[C@H]2OC)c1=O | 320 | 50500 |
| C=CCn1cnc2c(ncn2[C@@H]2O[C@H](COC)[C@@H](OP(C)(=O)O)[C@H]2O)c1=O | 940 | 9600 |
| C=CCn1cnc2c(ncn2[C@@H]2O[C@H](COC)[C@@H](OP(C)(O)=S)[C@H]2OC)c1=O (some centres undefined) | 610 | 39 |
| C#CCn1cnc2c(ncn2[C@@H]2O[C@H](COC)[C@@H](OP(C)(=O)O)[C@H]2OC)c1=O | 260 | 150 |
| CCCn1cnc2c(ncn2[C@@H]2O[C@H](COC)[C@@H](OP(C)(=O)O)[C@H]2OC)c1=O | 4970 | 6700 |
| C#CCn1cnc2c(ncn2[C@@H]2O[C@H](COC)[C@@H](OP(C)(=O)O)[C@H]2O)c1=O | 130 | 22.3 |
| CCCn1cnc2c(ncn2[C@@H]2O[C@H](COC)[C@@H](OP(C)(=O)O)[C@H]2OC)c1=S | 140 | 820 |
